Results of unrelated studies side by side (data: NIAID ChemDB).

Common to all: whole-cell or culture tests; species: Mycobacterium avium complex

ECn is the concentration giving n% inhibition of infection, replication or growth. An empty or dashed field is not shown. A number after MIC or MFC names an inhibition level or a share of isolates. Inhibition is in % at the dose shown (toxicity tests: loss of growth or viability). Lines come from different laboratories, so protocols vary.

SMILES	read by	strain or isolate	tested at	read-out	value
O=C(O)c1cn(C2CC2)c2c(F)c(N3CCC(n4ccnc4)C3)c(F)cc2c1=O				MIC50	8 µg/mL
O=[N+]([O-])[O][Ga]([O][N+](=O)[O-])[O][N+](=O)[O-]		2	500 µM	inhibition	70%
O=[N+]([O-])c1ccccc1Sn1cnc2c(=S)nc[nH]c21	resazurin			EC50	<12.5 µM
O=C(O)c1cn(-c2ccc(F)cc2F)c2c(F)c(N3CCNCC3)c(F)cc2c1=O		14 strains		MIC90	>32 µg/mL
CO[C@H]1/C=C/O[C@@]2(C)Oc3c(C)c(O)c4c(O)c(c5c(c4c3C2=O)NC2(CCN(CC(C)C)CC2)N=5)=NC(=O)/C(C)=C\C=C\[C@H](C)[C@H](O)[C@@H](C)[C@@H](O)[C@@H](C)[C@H](OC(C)=O)[C@@H]1C		9141		MIC	1 µg/mL
O=C(O)c1cn(C2CC2)c2c(F)c(N3CCC(N4CCCC4)C3)c(F)cc2c1=O				MIC50	1 µg/mL
CC(C)N1CCN(c2c(F)cc3c(=O)c(C(=O)O)cn(C4CC4)c3c2Cl)CC1		14 strains		MIC90	8 µg/mL
CN[C@@H]1[C@@H](O)[C@@H](O[C@@H]2[C@@H](O)[C@H](O[C@H]3O[C@H](CN)CC[C@H]3N)[C@@H](N)C[C@H]2N)OC[C@]1(C)O	agar	20 strains		EC50	<4 µg/mL
CC1COc2c(C3(N)CC3)c(F)cc3c(=O)c(C(=O)O)cn1c23		14 strains		MIC50	≥32 µg/mL
CO[C@H]1/C=C/O[C@@]2(C)Oc3c(C)c(O)c4c(O)c(c(/C=N/N5CCN(C/C=C/c6ccccc6)CC5)c(O)c4c3C2=O)NC(=O)/C(C)=C\C=C\[C@H](C)[C@H](O)[C@@H](C)[C@@H](O)[C@@H](C)[C@H](OC(C)=O)[C@@H]1C		SK-22		MBC	2 µg/mL
NCC1CN(c2c(F)cc3c(=O)c(C(=O)O)cn(C4CC4)c3c2F)CC1c1ccccc1				MIC50	4 µg/mL
NC[C@H]1O[C@H](O[C@H]2[C@H](O)[C@@H](O[C@H]3O[C@H](CO)[C@@H](O)[C@H](N)[C@H]3O)[C@H](N)C[C@@H]2N)[C@H](O)[C@@H](O)[C@@H]1O		Isolate C-48		MIC	≥400 µg/mL
NC1CC2CCC(C1)N2c1nc2c(cc1F)c(=O)c(C(=O)O)cn2C1CC1		14 strains		MIC90	16 µg/mL
CO[C@H]1/C=C/O[C@@]2(C)Oc3c(C)c(O)c4c(O)c(c5c(c4c3C2=O)NC2(CCN(CC(C)C)CC2)N=5)=NC(=O)/C(C)=C\C=C\[C@H](C)[C@H](O)[C@@H](C)[C@@H](O)[C@@H](C)[C@H](OC(C)=O)[C@@H]1C		10 isolates		MIC50	0.25 µg/mL
C[C@@H]1CN(c2c(F)c(N)c3c(=O)c(C(=O)O)cn(C4CC4)c3c2F)C[C@H](C)N1	broth dilution	1		MIC	1 µg/mL
CC(C)N1CCN(c2cc3c(cc2F)c(=O)c(C(=O)O)cn3C2CC2)CC1		14 strains		MIC50	2 µg/mL
CO/N=C(/C(=O)N[C@@H]1C(=O)N2C(C(=O)[O-])=C(C[N+]3(C)CCCC3)CS[C@H]12)c1csc(N)n1		14 strains	32 µg/mL	inhibition	0%
Nc1ccc(C(=O)O)c(O)c1	agar	97 strains		EC50	>10 µg/mL
CC[C@@H](CO)NCCN[C@@H](CC)CO		9838		MBC	30 µg/mL
CCNC(C)C1CCN(c2c(F)cc3c(=O)c(C(=O)O)cn(C4CC4)c3c2OC)C1				MIC50	4 µg/mL
CC[C@@H](CO)NCCN[C@@H](CC)CO		3350-4		MBC	30 µg/mL
O=C(O)c1cn(C2CC2)c2c(F)c(N3CCSCC3)c(F)cc2c1=O				MIC90	16 µg/mL
CC(C)N=c1cc2n(-c3ccc(Cl)cc3)c3ccccc3nc-2cc1Nc1ccc(Cl)cc1		SK32/HIV+		MIC	1 µg/mL
CC(C)(N)C1CCN(c2c(F)cc3c(=O)c(C(=O)O)cn(C4CC4)c3c2F)C1				MIC50	4 µg/mL
NCC[C@H](O)C(=O)N[C@@H]1C[C@H](N)[C@@H](O[C@H]2O[C@H](CN)[C@@H](O)[C@H](O)[C@H]2O)[C@H](O)[C@H]1O[C@H]1O[C@H](CO)[C@@H](O)[C@H](N)[C@H]1O		CH-4/HIV+		MIC	<1.25 µg/mL

A second listing of 2 rows from above:

SMILES,read by,strain or isolate,tested at,read-out,value
NCC1CN(c2c(F)cc3c(=O)c(C(=O)O)cn(C4CC4)c3c2F)CC1c1ccccc1,,,,MIC50,4 µg/mL
C[C@@H]1CN(c2c(F)c(N)c3c(=O)c(C(=O)O)cn(C4CC4)c3c2F)C[C@H](C)N1,broth dilution,1,,MIC,1 µg/mL